Assay: xn = mol fraction of the nth substance listed
Details: 101.3 kPa, x1 = 0.19

CCC[N+]1(C)CCCC1.N#C[N-]C#N + O=S(=O)(F)[N-]S(=O)(=O)F.[Na+]
Details	electrical conductivity [S/m]	mass density [kg/m3]	viscosity [mPa·s]
262.35 K	0.3	–	–
272.55 K	0.49	–	–
282.35 K	–	–	59.8
282.75 K	0.74	–	–
283.05 K	–	1074.3	–
292.65 K	1.06	–	–
293.35 K	–	1068	–
296.15 K	–	–	41.8
303.45 K	–	1062	–
309.05 K	–	–	29.9
312.85 K	1.87	–	–
313.25 K	–	1056.2	–
320.65 K	–	–	22.9
322.55 K	2.39	–	–
323.25 K	–	1050.2	–
332.15 K	–	–	18.2
332.35 K	2.84	–	–
342.35 K	–	–	14.2
343.25 K	–	1037.9	–
352.65 K	3.98	–	11.5
353.45 K	–	1033	–
362.35 K	4.54	–	–
362.45 K	–	–	9.3
371.05 K	–	–	7.8
372.75 K	5.33	–	–
382.45 K	5.79	–	–
391.45 K	6.6	–	–

From a compilation of properties of binary mixtures (doi:10.1016/j.molliq.2020.112597)
